# Test results published in PubChem BioAssay AID485364 (National Center for Advancing Translational Sciences (NCATS), 2010).
# Only a part is listed here, and it is no random draw. Calls of active or inactive are those of the source. Calls come from the whole dose curve; as a rule, active = well fitted inhibition curve with a large enough effect; inconclusive = small, poorly fitted or top-dose-only effect; inactive = no such curve, though single readings can be large or run the other way.
# Target: Schistosoma mansoni thioredoxin glutathione reductase (TGR) (UniProt Q962Y6)
# Experiment: qHTS Assay for the Inhibitors of Schistosoma Mansoni Peroxiredoxins; note: nearly all actives have a fitted effect of over 60% in size
# Details: purified TGR, DTNB reduction, TNB absorbance 405 nm; series mostly up to 114 µM; activity change, negative = inhibition: at the top concentration
# From the text: Schistosomiasis is a major neglected tropical disease that currently affects over 200 million. It is caused by different species of flatworms, such as Schistosoma mansoni. Over the last century, drugs to treat the disease have evolved from potassium antimonyl tartrate, artemisinin, oxamniquine, to praziquantel, with praziquantel remaining the universally-used single drug of choice over the past three decades. However, transmission rates have changed little with praziquantel, and there is evidence for the development of drug resistant parasites. Because there is currently no suitable alternative therapy available, there is an urgent need to identify new targets and drugs for schistosomiasis treatment. Thioredoxin glutathione reductase (TGR), one uniquely positioned S. mansoni enzyme, has been identified as a major component of the worms' distinct and compressed antioxidant "firewall". TGR is a multifunctional enzyme that catalyzes the interconversion between reduced and oxidized forms of both glutathione (GSH) and thioredoxins, thus making it an attractive new antiparasitic target. Recently, a quantitative high-throughput screen of the NIH Molecular Libraries Small Molecule Repository (MLSMR, ~71K at the time of the screen in 2007) was performed using an assay that targeted both TGR and peroxiredoxin2 (Prx2, an H2O2-reducing enzymatic component of the S. mansoni redox "firewall") by following the decrease of NADPH fluorescence. […] Additional mechanistic link between exogenous NO donation and parasitic injury for the oxadiazole-2-oxide class of compounds was also expanded and better defined. Although the screen addressed both TGR and Prx2, the assay required post-screen target deconvolution for further characterization of the actives. In addition, the fluorescence assay was also subject to fluorescence interference from compound library members. We have developed a 1536-well-based kinetic HTS assay to address TGR alone. The assay followed the reduction of 5, 5'-dithiobis (2-nitrobenzoic acid) (DTNB) (Ellman's reagent) by NADPH and measured the increase in absorbance at 412 nm of the reaction product, TNB. […] This assay format can be used to screen the current MLSMR collection (with >300K compounds available) to find novel TGR inhibitors. Furoxan is a good choice to serve as a positive control in the primary HTS assay.
# Three microliters of reagents (100 uM NADPH and 20 nM TGR or 100 uM NADPH as no-enzyme control) were dispensed into 1,536-well black clear-bottomed plates. Compounds (23 nL) were transferred via Kalypsys pin tool equipped with 1536-pin array (10 nL slotted pins, V&P Scientific, San Diego, CA). The plates were then be incubated for 15 min at room temperature, and 1 uL aliquot of 500 uM NADPH were added, immediately followed by a 1 uL aliquot of 15 mM DTNB to start the reaction. The plate was transferred to a ViewLux high-throughput CCD imager (Perkin-Elmer, Wellesley, MA) where kinetic measurements of the TNB absorbance were acquired using a 405 excitation filter. Throughout the screen, reagent bottles and all liquid lines were made light-tight to minimize reagent degradation. All screening operations were performed on a fully integrated robotic system (Kalypsys, San Diego, CA) containing one RX-130 and two RX-90 anthropomorphic robotic arms (Staubli, Duncan, SC). Library plates were screened starting from the lowest and proceeding to the highest concentration, and a "double-dipping" step of the highest concentration was required to access higher concentrations of compounds. Vehicle-only plates, with DMSO being pin-transferred to the entire column 5-48 compound area, were inserted uniformly at the beginning and the end of each library in order to monitor for and record any shifts in the background, which can be affected by reagent dispensers or loss in enzyme activity overtime. […]
# % is set by controls: 0 for no effect and ±100 for the full control effect; potency is the fitted concentration of half-maximal effect.
Compound,"activity change, negative = inhibition",Potency
N#CC1(Nc2ccccc2)CCN(Cc2ccccc2)CC1,inactive: 8.97%,–
O=C(NCC1(N2CCCCC2)CCCCC1)c1cccs1,inactive: 3.54%,–
O=C(NCC1(N2CCCCC2)CCCCC1)c1ccc(=O)[nH]c1,inactive: -1.75%,–
COc1ccc(C(=O)NCC2(N3CCCCC3)CCCCC2)c(OC)c1OC,inactive: 11.2%,–
CC(C)(C)OC(=O)N1CCC(N(C(=O)c2ccccc2)c2ccc(F)cc2)CC1,inactive: 2.15%,–
CSc1ccccc1C(=O)NCC1(N2CCCCC2)CCCCC1,inactive: -26%,–
CCC(CO)(C(=O)OC1CN2CCC1CC2)c1ccccc1 (stereo unspecified),inactive: 6.57%,–
COc1cccc(C(=O)N(c2cc(C)cc(C)c2)C2CCN(C(=O)OC(C)(C)C)CC2)c1,inactive: 1.4%,–
COc1cc(C(=O)NCC2(N3CCOCC3)CCCCC2)cc(OC)c1OC,inactive: 5.2%,–
COc1cc(OC)cc(C(=O)NCC2(N3CCOCC3)CCCCC2)c1,inactive: 11.9%,–
CCCOc1ccc(C)cc1CN(CCCl)CCCl,–,active: 14.1 µM
CN1CCC(Nc2ccc(Cl)cc2)CC1,inactive: -5.95%,–
CN1CCC(Nc2ccc(F)c(Cl)c2)CC1,inactive: 0%,–
CCOc1ncccc1C(=O)NCC1(N2CCOCC2)CCCCC1,inactive: 6.53%,–
CCCOc1ccc(C(=O)NCC2(N(C)C)CCCCC2)cc1,inactive: 7.91%,–
O=C(O)C1(Nc2ccccc2)CCN(Cc2ccccc2)CC1,inactive: -21.1%,–
CC(C)(C)OC(=O)N1CCC(Nc2ccccc2)CC1,inactive: 7.71%,–
CCN1CCC(Nc2cccc(F)c2)CC1,inactive: 1.98%,–
CN(C)c1ccc(C(=O)NCC2(N3CCCCC3)CCCCC2)cc1,inactive: -0.706%,–
CC(C)(C)c1ccc(C(=O)NCC2(N3CCOCC3)CCCCC2)cc1,inactive: -4.8%,–
O=C(NCC1(N2CCCCC2)CCCCC1)c1ccco1,inactive: -8.02%,–

Compound,"activity change, negative = inhibition",Potency
Cc1ccccc1C(=O)NCC1(N(C)C)CCCCC1,inactive: 0.357%,–
COc1cc(OC)cc(C(=O)NCC2(N3CCCCC3)CCCCC2)c1,inactive: 13.2%,–
CN(C)C1(CNC(=O)c2ccc(C(C)(C)C)cc2)CCCCC1,inactive: 1.76%,–
Fc1ccccc1NC1CCN(Cc2ccccc2)CC1,inactive: -5.57%,–
Cc1ccc(C(=O)NCC2(N3CCCCC3)CCCCC2)o1,inactive: 5.32%,–
CCCN1CCC(Nc2cc(OC)cc(OC)c2)CC1,inactive: 0%,–
O=C(NCC1(N2CCOCC2)CCCCC1)c1ccccc1,inactive: 0.944%,–
c1ccc(CN2CCC(Nc3ccccc3)CC2)cc1,inactive: 0.197%,–
CN(C)C1(CNC(=O)c2cccc(C#N)c2)CCCCC1,inactive: -17.4%,–
CC(C)(C)OC(=O)N1CCC(N(C(=O)c2ccccc2)c2ccc(Cl)cc2)CC1,inactive: -14.6%,–
O=C(NCC1(N2CCOCC2)CCCCC1)c1ccc([N+](=O)[O-])cc1,inactive: -4.53%,–
O=C(NCC1(N2CCOCC2)CCCCC1)c1ccccc1[N+](=O)[O-],inactive: -0.549%,–
N#Cc1ccc(C(=O)NCC2(N3CCCCC3)CCCCC2)cc1,inactive: -3.45%,–
CCOC(=O)C(CC)C1=NC(C)(C)Cc2ccccc21.O=[N+]([O-])c1cc([N+](=O)[O-])c(O)c([N+](=O)[O-])c1 (stereo unspecified),inactive: 1.14%,–
N/C(=N\O)c1c(N)no[n+]1[O-],inactive: 1.38%,–
CCOC(=O)N1CCC(Nc2ccc(C)cc2)CC1,inactive: -18.5%,–
O=C(O)c1cccc(Nc2c([N+](=O)[O-])cc([N+](=O)[O-])cc2[N+](=O)[O-])c1,inactive: -23.1%,–
O=C(OC1CN2CCC1CC2)C1c2ccccc2C=Cc2ccccc21 (stereo unspecified),inactive: -11.1%,–
CCc1cc(C(=O)NCC2(N3CCCCC3)CCCCC2)sc1C,inactive: 0.205%,–
O=C(NCC1(N2CCOCC2)CCCCC1)c1cc(Br)ccc1Cl,inactive: -23.3%,–
